Results of unrelated studies side by side (data: NIAID ChemDB).

All rows: whole-cell or culture tests; agent: Human cytomegalovirus

Blank or dashed fields: not listed here. a–b is a range or a potency band. Conditions beyond the fields shown may differ between rows. ECn is the concentration giving n% inhibition of infection, replication or growth.

smiles	measure	strain	cell line	read by	result
CNc1cccc2c(S(=O)(=O)Nc3ccc(NC(=O)C(C)(C)CO)cc3)cccc12	EC50	36 isolates		plaque count	1.11 µM
Nc1nc2c(ncn2COC(CO)CO)c(=O)[nH]1	EC50	AD169	HEL	plaque count	0.77 µg/mL
Nc1nc2c(ncn2CCCCO)c(=O)[nH]1	EC50	AD169	HEL	antigen	50 µM
COc1cc(OC)c(NC(=S)Nc2ccc(NC(=O)c3ccco3)cc2)cc1Cl	EC50				0.5 µM
COc1cc(NC(=O)c2ccccc2F)ccc1NC(=S)NC1=CC(Cl)C(C)(OC)C=C1	EC50		HFF	virus yield	3 µg/mL
CCCCCCCCCCCCCCCCCCO[C@H]1O[C@H](COP(=O)(O)C(=O)O)[C@@H](O)[C@H](O)[C@H]1O	EC50	TOWNE	HFF		5.6 µM
OC[C@H]1O[C@@H](n2c(Br)nc3cc(Cl)c(Cl)cc32)[C@H](O)[C@@H]1O	EC50	R56		plaque count	7.6 µM
Nc1ncnc2c1ncn2C[C@H]1COP(=O)(O)CO1	EC50	DAVIS	HEL	plaque count	0.43 µM
O[C@@H]1[C@H](O)[C@H](O)CO[C@H]1n1c(Br)nc2cc(Cl)c(Cl)cc21	EC50	ACVRB (L802M)	MRC-5	plaque count	1.4 µM
Nc1nc2c(ncn2C=C2CC2CO)c(=O)[nH]1	EC50	Coffman	HFF	plaque count	6.9 µM
CC#Cc1cn([C@@H]2O[C@H](COP(=O)(O)OCCCCCCCCCCCCCCCC)[C@@H](O)[C@@H]2O)c(=O)[nH]c1=O	EC50	AD169	MRC-5	plaque count	100 µM
COc1cc(OC)c(NC(=S)Nc2ccc(NC(=O)c3cnns3)cc2)cc1Cl	EC50				0.15 µM
Nc1ccn(C[C@H]2COP(=O)(O)CO2)c(=O)n1	EC75	PC92 (ganciclovir- foscarnet-susceptible)	MRC-5	plaque count	0.67 µM
O=C(NCc1ccc(Cl)cc1)c1c[nH]c2c(F)cc(CCCO)cc2c1=O	EC90	759rD100		plaque count	2.1 µM
Nc1nc2c(ncn2[C@@H]2C=C[C@H](CO)[C@@H](O)C2)c(=O)[nH]1	EC50	U 9070			0.13 µg/mL
COc1cc(OC)c(NC(=S)Nc2ccc(NC(C)=O)cc2)cc1Cl	EC50	AD169	HFF		0.037 µM
COC(c1cn([C@H]2C[C@H](O)[C@@H](CO)O2)c(=O)[nH]c1=O)C(Cl)Cl	EC50	AD169	HFF	plaque count	>282 µM
CC#Cc1cn([C@@H]2O[C@H](COP(=O)(O)Oc3ccccc3Cl)[C@@H](O)[C@@H]2O)c(=O)[nH]c1=O	EC50	AD169	MRC-5	plaque count	>100 µM
O=C1C=CN(Cc2ccc(Cl)cc2)S(=O)(=O)N1Cc1ccc(Cl)cc1	EC50	AD169	MRC-5	plaque count	12.5 µM
Nc1nc2c(ncn2COC[C@@H](O)CO)c(=O)[nH]1	EC50	AD169	MRC-5	plaque count	>25 µg/mL
Nc1nc(Cl)c2ncn(/C=C3/C[C@H]3CO)c2n1	EC50	AD169	HFF	cytopathic effect	5.4 µM
CCOP(=O)(O)CCC(O)CCOCn1cnc2c(=O)[nH]c(N)nc21	EC50	AD169	MRC-5	plaque count	>2000 µM
CC(C)=CCc1ccc(O)c(=O)cc1C(C)C	EC50	AD169	HFF	plaque count	0.45 µM
Nc1ncnc2c1ncn2C=C1CC1CO	EC90	VR5611 (ganciclovir-susceptible)		plaque count	5 µM
Nc1ncnc2c1nnn2[C@@H]1C=C(CO)[C@@H](O)[C@H]1O	EC50	DAVIS	HEL	plaque count	0.7 µg/mL
O=C(O)P(=O)(O)O	EC50	TOWNE	HFF		77 µM
CCSCc1c(Cl)nc2cc(Cl)c(Cl)cn12	EC50	TOWNE	HFF	plaque count	>100 µM
O=C(O)c1cn(C2CC2)c2nc(N3CCN(c4nc5ccccc5s4)CC3)ccc2c1=O	EC50	AD169	HFF	plaque count	0.19 µM
CCOP(=O)(O)CCC(C)OCn1cnc2c(=O)[nH]c(N)nc21	EC50	AD169	MRC-5	plaque count	660 µM
CCCCCCCCCCCCO[C@H]1O[C@H](COP(=O)(O)C(=O)O)[C@@H](O)[C@H](O)[C@H]1O	EC50	TOWNE	HFF		13.2 µM
Nc1nc2c(ncn2[C@@H]2CO[C@H](CO)[C@@H](O)C2)c(=O)[nH]1	EC50			plaque count	1–10 µM
OC[C@H]1O[C@@H](n2c(Cl)nc3cc4cc(Cl)c(Cl)cc4cc32)[C@H](O)[C@@H]1O	EC50			virus yield	9 µM
Nc1cc2c(=O)c(C(=O)O)cn(C3CC3)c2cc1N1CCN(c2cnccn2)CC1	EC50	AD169	HFF	plaque count	1.4 µM
Nc1ncnc2c1ncn2CCCC(O)CF	EC50	DAVIS	HEL	cytopathic effect	>50 µg/mL
CC#Cc1cn([C@@H]2O[C@H](COP(=O)(Oc3ccccc3)Oc3ccc([N+](=O)[O-])cc3)[C@@H](O)[C@@H]2O)c(=O)[nH]c1=O	EC50	AD169	MRC-5	plaque count	>100 µM
Nc1nc2c(ncn2COC(CO)CO)c(=O)[nH]1	EC50	AD169	HFF	plaque count	4.3 µM
Nc1ccn(C[C@@H](CO)OCP(=O)(O)O)c(=O)n1.O=C(O)P(=O)(O)O	EC75	PAAR	MRC-5	plaque count	1.11 µM
Nc1nc2c(ncn2COCCO)c(=O)[nH]1	EC50	AD169	HFF	cytopathic effect	0.75 µM
CCSCc1c(Cl)nc2ccc(Cl)cn12	EC50	TOWNE	HFF	plaque count	22 µM
C=C(C)[C@@H]1CCc2c(O)c(O)c(=O)cc(C)c2C1	EC50	AD169	HFF	plaque count	2.66 µM
CCCCCCCCCCCCCCCCCCCCO[C@@H]1O[C@H](COP(=O)(O)C(=O)O)[C@H](O)[C@H](O)[C@H]1O	EC50	TOWNE	HFF		4 µM
Nc1nccc2c1ncn2C[C@@H](CO)OCP(=O)(O)O	EC50	AD169	HEL	flow cytometry	1.14 µM
CC#Cc1cn([C@@H]2O[C@H](COP(=O)(N[C@@H](C)C(=O)OC)Oc3ccccc3)[C@@H](O)[C@@H]2O)c(=O)[nH]c1=O	EC50	AD169	MRC-5	plaque count	>100 µM
Nc1nc(NC2CC2)c2ncn(C=C3CC3CO)c2n1	EC50	C8914-6	HFF	plaque count	4.4 µM
Nc1ncnc2c1ncn2C(CF)CCCO	EC50	DAVIS	HEL	cytopathic effect	>50 µg/mL
CC#Cc1cn([C@@H]2O[C@H](COP(=O)(OCC(Cl)(Cl)Cl)Oc3ccccc3)[C@@H](O)[C@@H]2O)c(=O)[nH]c1=O	EC50	AD169	MRC-5	plaque count	>10 µM
CN(C)c1cc2c(=O)c(C(=O)O)cn(C)c2cc1N1CCN(c2ccccn2)CC1	EC50	AD169	HFF	plaque count	16 µM
CCOP(=O)(CCC(COC)OCn1cnc2c(=O)[nH]c(N)nc21)OCC	EC50	AD169	MRC-5	plaque count	133 µM
CCCCN1C(=O)c2ccccc2N(Cc2ccc(OC)cc2)S1(=O)=O	EC50	AD169	MRC-5	plaque count	4.7 µM
O=c1[nH]c(=O)n([C@H]2C[C@H](O)[C@@H](CO)O2)cc1C(O)C(Br)I	EC50	AD169	HFF	plaque count	>210 µM
Nc1ccn(C[C@@H](CO)OCP(=O)(O)O)c(=O)n1	EC50	DAVIS	HEL	plaque count	0.36 µM
OC[C@H]1O[C@@H](n2c(Cl)nc3cc(Cl)c(Cl)cc32)[C@H](O)[C@@H]1O	EC50	TOWNE	HFF	plaque count	2.9 µM
Nc1ccn(C(CF)CCCO)c(=O)n1	EC50	DAVIS	HEL	cytopathic effect	>50 µg/mL
CC(C)COC1=NS(=O)(=O)N(Cc2ccc(Cl)cc2)c2ccccc21	EC50	AD169	MRC-5	plaque count	5.2 µM
CNc1cc2c(=O)c(C(=O)O)cn(C)c2cc1N1CCN(c2cccc(C(F)(F)F)c2)CC1	EC50	AD169	HFF	plaque count	3.5 µM
Cc1cc(C2CCCCC2)n(O)c(=O)c1	EC50	AD169	HFF	plaque count	0.33 µM
Nc1ccn(C[C@H]2COP(=O)(O)CO2)c(=O)n1.O=C(O)P(=O)(O)O	EC75	PAAR	MRC-5	plaque count	0.93 µM
O=C(NCc1ccc(Cl)cc1)c1c[nH]c2c(F)cccc2c1=O	EC50	DAVIS		plaque count	5.1 µM
Nc1nc2c(ncn2CC[C@@H](O)CO)c(=O)[nH]1	EC50	AD169	HEL		285 µM
O=C1c2sccc2N(Cc2ccc(Cl)c(Cl)c2)S(=O)(=O)N1Cc1ccccc1	EC50	AD169	MRC-5	plaque count	4 µM
COC(c1cn([C@H]2C[C@H](O)[C@@H](CO)O2)c(=O)[nH]c1=O)C(Br)Br	EC50	AD169	HFF	plaque count	>225 µM
Nc1nc2c(ncn2CCC(CO)CO)c(=O)[nH]1	EC50			plaque count	10–100 µM
COCC(CCP(=O)(O)O)OCn1cnc2c(Cl)nc(N)nc21	EC50	AD169	MRC-5	plaque count	778 µM
O=C1c2sc3ccccc3c2N(Cc2ccc(Cl)cc2)S(=O)(=O)N1Cc1ccccc1	EC50	AD169	MRC-5	plaque count	12.7 µM
O=c1[nH]c(=O)n([C@H]2C[C@H](O)[C@@H](CO)O2)cc1C(O)C(Br)Br	EC50	AD169	HFF	plaque count	>232 µM
CC(C)CN1C(=O)c2ccccc2N(Cc2ccc(Cl)cc2)S1(=O)=O	EC50	AD169	MRC-5	plaque count	18.4 µM
CC#Cc1cn([C@@H]2O[C@H](COP(=O)(N[C@H](C(=O)OC)C(C)C)Oc3ccccc3)[C@@H](O)[C@@H]2O)c(=O)[nH]c1=O	EC50	AD169	MRC-5	plaque count	>100 µM
CCCCN1C(=O)c2ccccc2N(C(=O)c2ccc(Br)cc2)S1(=O)=O	EC50	AD169	MRC-5	plaque count	2 µM
Nc1nc2c(ncn2/C=C2/CC2(CO)CO)c(=O)[nH]1	EC50	AD169	HFF	cytopathic effect	>0.49 µM
CCCN1C(=O)c2ccccc2N(Cc2ccc(Cl)cc2)S1(=O)=O	EC50	AD169	MRC-5	plaque count	6.8 µM
OCC(O)COCc1c(Cl)nc2cc(Cl)c(Cl)cn12	EC50	TOWNE	HFF	plaque count	>100 µM
O=C(O)P(=O)(O)O	EC75	AD169 (ganciclovir foscarnet-susceptible)	MRC-5	plaque count	86.56 µM

For reference, 9 entries again:

smiles,measure,strain,cell line,read by,result
CCCCCCCCCCCCCCCCCCO[C@H]1O[C@H](COP(=O)(O)C(=O)O)[C@@H](O)[C@H](O)[C@H]1O,EC50,TOWNE,HFF,,5.6 µM
O=C(NCc1ccc(Cl)cc1)c1c[nH]c2c(F)cccc2c1=O,EC50,DAVIS,,plaque count,5.1 µM
Nc1ccn(C[C@@H](CO)OCP(=O)(O)O)c(=O)n1,EC50,DAVIS,HEL,plaque count,0.36 µM
O=C1c2sc3ccccc3c2N(Cc2ccc(Cl)cc2)S(=O)(=O)N1Cc1ccccc1,EC50,AD169,MRC-5,plaque count,12.7 µM
O=C(NCc1ccc(Cl)cc1)c1c[nH]c2c(F)cc(CCCO)cc2c1=O,EC90,759rD100,,plaque count,2.1 µM
O=c1[nH]c(=O)n([C@H]2C[C@H](O)[C@@H](CO)O2)cc1C(O)C(Br)I,EC50,AD169,HFF,plaque count,>210 µM
Nc1ncnc2c1ncn2C(CF)CCCO,EC50,DAVIS,HEL,cytopathic effect,>50 µg/mL
CCCCN1C(=O)c2ccccc2N(C(=O)c2ccc(Br)cc2)S1(=O)=O,EC50,AD169,MRC-5,plaque count,2 µM
CC#Cc1cn([C@@H]2O[C@H](COP(=O)(N[C@@H](C)C(=O)OC)Oc3ccccc3)[C@@H](O)[C@@H]2O)c(=O)[nH]c1=O,EC50,AD169,MRC-5,plaque count,>100 µM